Anti-infective test results gathered from many reports (values: NIAID ChemDB through PubChem).

Common to all: target-level tests

Percent inhibition refers to the dose given; in toxicity tests it is the harm to the cells. Fold resistance: result on the changed form divided by that on wild type. An empty or dashed field is not shown. Rows are shuffled and stem from different studies. ICn: concentration for n% inhibition.

smiles	agent	read by	tested at	strain or isolate	protein	mutations	endpoint	result
COc1cc(CN=NC(=O)c2cc3ccccc3s2)cc([N+](=O)[O-])c1O	HIV-1	fluorescence			gp41		IC50	~5 µM
CC(C)(C)c1ccc(-n2nnnc2SCC(=O)Nc2ccc(C#CCOC(N)=O)cc2Cl)c(Cl)c1	HIV-1	PicoGreen / fluorescence		WT	Reverse transcriptase		IC50	<1 µM
Nc1nc2c(ncn2[C@H]2CC[C@@H](COP(=O)(O)OP(=O)(O)OP(=O)(O)O)O2)c(=O)[nH]1	HIV				Reverse transcriptase	RT-L74V	fold resistance	4.29
Nc1nc2c(ncn2[C@@H]2O[C@H](CO)C(OP(O)(=S)OC[C@H]3O[C@@H](n4cnc5c(=O)[nH]c(N)nc54)[C@H](O)[C@@H]3O)C2O)c(=O)[nH]1	HIV-1	RNase H	50 µM		RNase H		inhibition	50%
COC(=O)/C=C/c1ccc(NC(=O)CSc2nnnn2-c2ccc(C)cc2Cl)c(Cl)c1	HIV-1	PicoGreen / fluorescence		WT	Reverse transcriptase		IC50	<1 µM
CC[C@@H](C)[C@H](NC(=O)[C@@H]1CCCN1C(=O)[C@@H](O)[C@H](CC1CCCCC1)NC(=O)[C@H](CC(N)=O)NC(=O)[C@H]1Cc2ccccc2CN1)C(=O)N[C@H](C(N)=O)C(C)C	HIV-1		5 µM		Protease		inhibition	71%
CC(=O)N1CCc2nc(C(=O)NCc3ccc(F)cc3)c(O)c(=O)n2CC1	HIV-1	ELISA			Integrase		IC50	<10 µM
CC(=O)Nc1cc2c(cc1OC(F)(F)F)CCN(c1nn3c(C)nnc3c3ccccc13)C2	HIV-1	RT activity / fluorescence		IIIB	Reverse transcriptase		IC90	0.95 µM
Cc1ccc(-n2nnnc2SCC(=O)Nc2ccc(-c3coc(C)n3)cc2Cl)c(Cl)c1	HIV-1	PicoGreen / fluorescence			Reverse transcriptase	RT-K103 Y181C	IC50	<1 µM
NOCc1c(F)cccc1Cl	HIV-1	ELISA	100 µg/mL		gp120		inhibition	21.7%
CC(=O)c1ccc(O)c2nc(/C=C/c3ccc(C(=O)O)cc3[N+](=O)[O-])ccc12	HIV	3′ processing / gel		HXB2	Integrase		IC50	2.3 µM
CC(C)(C)NC(=O)[C@@H]1CCCN1C(=O)[C@@H](O)[C@H](Cc1ccccc1)NC(=O)[C@H](CS(C)(=O)=O)NC(=O)CNc1cccc2ccccc12	HIV-1		0.05 µM		Protease		inhibition	55.4%
CC(C)(C#Cc1ccc(NC(=O)CSc2nnc(C(F)(F)F)n2-c2ccc(C3CC3)cc2Cl)c(Cl)c1)NC(=O)c1cc[n+]([O-])cc1	HIV-1	PicoGreen / fluorescence		WT	Reverse transcriptase		IC50	<1 µM
Fc1cccc(Cl)c1-c1nnc2ccc3c(C(F)(F)F)ccnc3n12	HIV-1	fluorescence			gp41		IC50	>100 µM
FC(F)(F)c1cccc2c1CCN(c1nn3c(C4CC4)nnc3c3ccccc13)C2	HIV-1	RT activity / fluorescence		IIIB	Reverse transcriptase		IC90	49.6 µM
Nc1ccn([C@H]2CC[C@@H](COP(=O)(O)OP(=O)(O)OP(=O)(O)O)O2)c(=O)n1	HIV				Reverse transcriptase	RT-L74V	Ki	17 µM
Nc1nc2c(ncn2[C@H]2CC[C@@H](COP(=O)(O)OP(=O)(O)NP(=O)(O)OP(=O)(O)OC[C@H]3O[C@@H](n4cnc5c(N)ncnc54)[C@H](O)[C@@H]3O)O2)c(=O)[nH]1	HIV	nucleotide incorporation / radiometric			Reverse transcriptase	RT-M41L T215Y	IC50	>37 µM
COc1cc2c(cc1[N+](=O)[O-])CN(c1nn3c(C4CC4)nnc3c3ccccc13)CC2	HIV-1	RT activity / fluorescence		IIIB	Reverse transcriptase		IC90	78.8 µM
CC(CC(=O)O)NC(=O)COc1ccc(NC(=O)CSc2nnnn2-c2ccc(C(C)(C)C)cc2Cl)c(Cl)c1	HIV-1	PicoGreen / fluorescence			Reverse transcriptase	RT-K103 Y181C	IC50	<1 µM
Cc1ccc(S(=O)(=O)N2CCn3c(nc(C(=O)NCc4ccc(F)cc4)c(O)c3=O)C2)cc1	HIV-1	ELISA			Integrase		IC50	<10 µM
COc1ccnc2[nH]cc(C(=O)C(=O)N3CCN(C(=O)c4ccccc4)C[C@H]3C)c12	HIV-1	ELISA		LAI	gp120	GP120-S440R	fold resistance	2
CC(C)(C)c1ccc(-n2nnnc2SCC(=O)Nc2ccc(NC(=O)c3ccccc3)cc2Cl)c(Cl)c1	HIV-1	PicoGreen / fluorescence			Reverse transcriptase	RT-K103 Y181C	IC50	<1 µM
CC(=O)Nc1ccc2c(c1)CN(c1nn3c(C4CC4)nnc3c3ccccc13)CC2	HIV-1	RT activity / fluorescence		98US_MSC5016	Reverse transcriptase		IC90	0.41 µM
CC(C)(C#Cc1ccc(NC(=O)CSc2nnnn2-c2ccc(CC3CC3)cc2Cl)c(Cl)c1)C(=O)NCCCN1CCCC1=O	HIV-1	PicoGreen / fluorescence		WT	Reverse transcriptase		IC50	<1 µM
Cc1cn([C@H]2CC[C@@H](COP(=O)(O)OP(=O)(O)OP(=O)(O)OP(=O)(O)OC[C@@H]3CC[C@H](n4cc(C)c(=O)[nH]c4=O)O3)O2)c(=O)[nH]c1=O	HIV	nucleotide incorporation / radiometric			Reverse transcriptase	RT-M41L T215Y	fold resistance	0.38
Cc1ccc(Cl)cc1Nc1nc(C(F)(F)F)ccc1C(=O)NN1CCN(c2cccc(Cl)c2)CC1	HIV-1	RNase H / absorbance			RNase H	Y181C	fold resistance	3.1
Cn1nncc1CN1CCn2c(nc(C(=O)NCc3ccc(F)cc3)c(O)c2=O)C1(C)C	HIV-1	ELISA			Integrase		IC50	<10 µM
CCCCN(CCCC)c1nc(OCCc2ccc([N+](=O)[O-])cc2)c2ncn([C@@H]3O[C@H](COP(O)(=S)O[C@H]4[C@@H](F)[C@H](n5cnc6c(N)ncnc65)O[C@@H]4CO)[C@@H](O)[C@H]3O)c2n1	HIV-1	RNase H	50 µM		RNase H		inhibition	100%
FC(F)(F)c1cc(C(F)(F)F)c2ccc3nnc(-c4cccs4)n3c2n1	HIV-1	fluorescence			gp41		IC50	~4.5 µM
Nc1nc2c(ncn2[C@@H]2O[C@H](COP(=O)(O)OC3C[C@H](n4cnc5c(N)ncnc54)O[C@@H]3CO)[C@@H](O)[C@H]2O)c(=O)[nH]1	HIV-1	RNase H	50 µM		RNase H		inhibition	17%
CCC(C)NC(=O)[C@@H]1CCCN1C(=O)[C@@H](O)[C@H](Cc1ccccc1)NC(=O)[C@H](CC(N)=O)NC(=O)OCc1ccccc1	HIV-1		0.05 µM		Protease		inhibition	17.4%
CCOCn1c(Sc2ccccc2)c(CC)c(=O)[nH]c1=O	HIV	nucleotide incorporation			Reverse transcriptase	RT-F61L	IC50	0.107 µM
CC(C)(C)c1ccc(-n2nnnc2SCC(=O)Nc2ccc(OCC(=O)NCCc3ccc(O)cc3)cc2Cl)c(Cl)c1	HIV-1	PicoGreen / fluorescence		WT	Reverse transcriptase		IC50	<1 µM
CC(=O)c1ccc(O)c2nc(/C=C/c3cc(O)c(O)cc3O)ccc12	HIV	3′ processing / gel		HXB2	Integrase		IC50	0.225 µM
CC(C)(C)c1ccc(-n2nnnc2SCC(=O)Nc2ccc(C#Cc3ccccc3)cc2Cl)c(Cl)c1	HIV-1	PicoGreen / fluorescence			Reverse transcriptase	RT-K103 Y181C	IC50	<1 µM
CC(C)=CCC/C(C)=C/CC/C(C)=C/CC/C(C)=C/CC/C(C)=C/CC/C(C)=C/Cc1cc(O)ccc1O	HIV-2	nucleotide incorporation			Reverse transcriptase		IC50	1.2 µM
CSC[C@H](NC(=O)COc1cccc2ccccc12)C(=O)N[C@@H](Cc1ccccc1)[C@H](O)C(=O)N1CCC[C@H]1C(=O)NC(C)(C)C	HIV-1		0.05 µM		Protease		inhibition	93.1%
CC(=O)N1CCn2c(nc(C(=O)NCc3ccc(F)cc3)c(O)c2=O)C1(C)C	HIV-1	ELISA			Integrase		IC50	<10 µM
CN1CCN(CCOC(C)(C)C#Cc2ccc(NC(=O)CSc3nnnn3-c3ccc(C4CC4)cc3Cl)c(Cl)c2)CC1	HIV-1	PicoGreen / fluorescence			Reverse transcriptase	RT-K103 Y181C	IC50	<1 µM
Cc1cc(CN2CCn3c(nc(C(=O)NCc4ccc(F)cc4)c(O)c3=O)C2(C)C)on1	HIV-1	ELISA			Integrase		IC50	<10 µM
O=C(COc1ccc(NC(=O)CSc2nnnn2-c2ccc(C3CC3)cc2Cl)c(Cl)c1)NCCc1cc[n+]([O-])cc1	HIV-1	PicoGreen / fluorescence		WT	Reverse transcriptase		IC50	<1 µM
C[C@@H](O)[C@H](NC(=O)COc1cccc2ccccc12)C(=O)N[C@@H](Cc1ccccc1)[C@H](O)C(=O)N1CSC[C@H]1C(=O)NC(C)(C)C	HIV-1		0.05 µM		Protease		inhibition	45.3%
CCN1CCn2c(nc(C(=O)NCc3ccc(F)cc3)c(O)c2=O)C(N(C)C(=O)C(=O)N(C)C)C1	HIV-1	ELISA			Integrase		IC50	<10 µM
Nc1nc2c(ncn2[C@H]2CC[C@@H](COP(=O)(O)OP(=O)(O)OP(=O)(O)OP(=O)(O)OC[C@H]3O[C@@H](n4cnc5c(N)ncnc54)[C@H](O)[C@@H]3O)O2)c(=O)[nH]1	HIV	nucleotide incorporation / radiometric			Reverse transcriptase	RT-M41L T215Y	fold resistance	0.29
CC1(C)c2nc(C(=O)NCc3ccc(F)cc3)c(O)c(=O)n2CCN1CC(=O)NCc1ccncc1	HIV-1	ELISA			Integrase		IC50	<10 µM
CC(C)(C#Cc1ccc(NC(=O)CSc2nnnn2-c2cc(C(F)(F)F)ccc2Cl)c(Cl)c1)C(=O)O	HIV-1	PicoGreen / fluorescence			Reverse transcriptase	RT-K103 Y181C	IC50	<1 µM
Nc1nc2c(ncn2[C@H]2CC[C@@H](COP(=O)(O)OP(=O)(O)OP(=O)(O)O)O2)c(=O)[nH]1	HIV	nucleotide incorporation / radiometric			Reverse transcriptase	RT-K65R	fold resistance	4.16
Cc1cc(-c2ccc(NC(=O)CSc3nnnn3-c3ccc(C(C)(C)C)cc3Cl)c(Cl)c2)ccc1OCC(=O)O	HIV-1	PicoGreen / fluorescence			Reverse transcriptase	RT-K103 Y181C	IC50	<1 µM
CN(C)CC1NCCn2c1nc(C(=O)NCc1ccc(F)cc1)c(O)c2=O	HIV-1	ELISA			Integrase		IC50	<10 µM
Nc1nc2c(ncn2[C@@H]2O[C@H](COP(=O)(O)O[C@H]3[C@@H](O)[C@H](n4cnc5c(=O)[nH]c(N)nc54)O[C@@H]3CO)[C@@H](O)[C@H]2O)c(=O)[nH]1	HIV-1	RNase H	50 µM		RNase H		inhibition	65%
Cc1nnc2c3ccccc3c(N3CCC4CCCCC4C3)nn12	HIV-1	RT activity / fluorescence		KER2008	Reverse transcriptase		IC90	58.2 µM
Cc1cc(NC(=O)COc2ccc(NC(=O)CSc3nnnn3-c3ccc(C(C)(C)C)cc3Cl)c(Cl)c2)no1	HIV-1	PicoGreen / fluorescence			Reverse transcriptase	RT-K103 Y181C	IC50	<1 µM
CCC(C)(C)NC(=O)[C@@H]1CSCN1C(=O)[C@@H](O)[C@H](Cc1ccccc1)NC(=O)[C@H](CS(C)(=O)=O)NC(=O)COc1cccc2ccccc12	HIV-1		0.05 µM		Protease		inhibition	88.3%
Nc1nc2c(ncn2[C@H]2CO[C@@H](COP(=O)(O)OP(=O)(O)OP(=O)(O)O)O2)c(=O)[nH]1	HIV	radiometric			Reverse transcriptase	RT-L74V	Ki	0.067 µM
CNc1ccccc1C(=O)O[C@H]1[C@@H](O)[C@H](n2cnc3c(N)ncnc32)O[C@@H]1COP(=O)(O)OP(=O)(O)OP(=O)(O)OP(=O)(O)OC[C@@H]1CC[C@H](n2cnc3c(=O)[nH]c(N)nc32)O1	HIV	nucleotide incorporation / radiometric			Reverse transcriptase	RT-D67N K70R	IC50	2.5 µM
CCCCN(CCCC)c1nc(OCCc2ccc([N+](=O)[O-])cc2)c2ncn([C@@H]3O[C@H](COP(O)(O)=S)[C@@H](O)[C@H]3O)c2n1	HIV-1	RNase H			RNase H		Ki	10 µM
Cc1cc(-n2nnnc2SCC(=O)Nc2ccc(C#CC(C)(C)O)cc2Cl)c(Cl)c(C(F)(F)F)c1	HIV-1	PicoGreen / fluorescence		WT	Reverse transcriptase		IC50	<1 µM
Cc1nnc2c3c(c(N4CCc5ccccc5C4)nn12)C1CCC3CC1	HIV-1	RT activity / fluorescence		98US_MSC5016	Reverse transcriptase		IC90	9.75 µM
Nc1nc2c(ncn2[C@@H]2O[C@H](COCO[C@@H]3[C@H](O)[C@@H](CO)O[C@H]3n3cnc4c(=O)[nH]c(N)nc43)[C@@H](O)[C@H]2O)c(=O)[nH]1	HIV-1	RNase H	50 µM		RNase H		inhibition	80%
Cc1ccc(-c2c(OCC(=O)Nc3ccc(C#CC(C)(C)O)cc3Cl)n[nH]c2C)c(Cl)c1	HIV-1	PicoGreen / fluorescence			Reverse transcriptase	RT-K103 Y181C	IC50	<1 µM
Nc1nc(OCCc2ccc([N+](=O)[O-])cc2)c2ncn([C@@H]3O[C@H](COP(O)(=S)O[C@H]4[C@@H](F)[C@H](n5cnc6c(N)ncnc65)O[C@@H]4CO)[C@@H](O)[C@H]3O)c2n1	HIV-1	RNase H	50 µM		RNase H		inhibition	69%
CC(C)(C)NC(=O)[C@@H]1CC2CCCCC2CN1C(=O)[C@@H](O)[C@H](Cc1ccccc1)NC(=O)[C@H](CS(C)(=O)=O)NC(=O)COc1cccc2ccccc12	HIV-1		0.05 µM		Protease		inhibition	4.1%
c1csc(-c2nnc3c4ccccc4c(N4CCc5ccccc5C4)nn23)c1	HIV-1	RT activity / fluorescence		IIIB	Reverse transcriptase		IC90	>100 µM
CC(C)(C#Cc1ccc(NC(=O)CSc2nnnn2-c2ccc(C3CC3)cc2Cl)c(Cl)c1F)NC(=O)CN1CCNCC1	HIV-1	PicoGreen / fluorescence		WT	Reverse transcriptase		IC50	<1 µM
CC[C@H](C)[C@H](NC(=O)[C@@H]1CCCN1C(=O)[C@@H](O)[C@H](Cc1ccccc1)NC(=O)[C@H](CC(N)=O)NC(=O)[C@H](Cc1ccccc1)NC(=O)[C@@H](N)CO)C(=O)N[C@H](C(N)=O)C(C)C	HIV-1		5 µM		Protease		inhibition	97.8%
CC(C)(C#Cc1ccc(NC(=O)CSc2nnnn2-c2ccc(C3CC3)cc2Cl)c(Cl)c1F)OCCO	HIV-1	PicoGreen / fluorescence			Reverse transcriptase	RT-K103 Y181C	IC50	<1 µM
c1ccc2c(c1)CCN(c1nn3c(-c4ccsc4)nnc3c3ccccc13)C2	HIV-1	RT activity / fluorescence		98US_MSC5016	Reverse transcriptase		IC90	61.4 µM